Patent publication US20140093504A1 (HER MAJESTY THE QUEEN IN RIGHT OF CANADA AS REPRESENTED BY …, published 2014)
Changes are numbered by the printed parent chain.

B1: monoclonal antibody B10 (antibody, V domains shown)
VH: EVQLQESGTGLVKPGASVKLSCKASGYTFTEYIINWVKQRSGQGLEWIGWFYPGSGDIKYNEKFKDKATLTADKSSSTVYMELSRLTSEDSAVYFCARNGRWDDDYFDYWGQGTTVTVSS
VL: DIVLTQSPSSMYASLGERVTITCKASQDINNYLRWFQQKPGKSPKTLIYRANRLVDGVPSRFSGSGSGQDYSLTISSLEYEDMGFYSCLQYDEFPYTFGGGTKLEIKR
B2: monoclonal antibody D9 (antibody, V domains shown)
VH: QVQLQESGPELVKPGASMKISCKASGYSFTEHIINWVKQTHRENLEWIGLINPNSGGTNYNQKFKDKATLTVDTASNTAYMELLSLTSEDSAVYYCARLRYDAAYWGQGTTVTVSS
VL: DIELTQSHKFMSTSVGDRVSITCKASQDVTAAVAWYQQKPGQSPKLLIHSASYRYTGVPDRFTGSGSGSDFTFTISSVQAEDLAVYYCQQYYNTPLTFGAGTKLELKR
B3: humanized D9 (antibody, V domains shown)
VH: QVQLVQSGAEVKKPGASVKVSCKASGYTFTEHIINWVRQAPGQNLEWMGLINPNSGGTNYNQKFKDRVTMTTDTSTSTAYMELLSLRSDDTAVYYCARLRYDAAYWGQGTTVTVSS
VL: DIQMTQSPSSLSASVGDRVTITCKASQDVTAAVAWYQQKPGKAPKLLIYSASYRYTGVPSRFSGSGSGTDFTLTISSLQPEDFATYYCQQYYNTPLTFGGGTKVEIK
B4: monoclonal antibody A9 (antibody, V domains shown)
VH: KVQLQESGAELMKPGASVKISCKATGYTFSSYWIQWIKQRPGHGLEWIGEILPGTGNTNYSEKFKGKATFTTDTSSNTAYMHFSSLTSEDSAVYYCSRCEGEGYFQAWFAYWGQGTTVTVSS
VL: DIQMTQSPSSLSASLGGKVTITCKASQDIKQYIAWYQYKPGKGPRLLIHYTSTLQPGIPSRFSGSGSGRDYSFSISNLDPEDIATYYCLQYDHLYTFGGGTKLEIKR
B5: monoclonal antibody D3 (antibody, V domains shown)
VH: KVKLQESGAELMKPGASVKISCKSTGYTFSNYWIEWIKQRPGHGLEWIGEILPGSGSINYDEKFKGKATFTADTSSDTVYMFLSGLTSEDSAVYYCARQANRGFDSAWFAYWGQGTTVTVSS
VL: B4 VL with S14F, L15V, Q31K, A34G, Y38Q, D79E, H93S

Legend:
ricin [1] = biological target: T1, ricin (castor plant, UniProt P02879 36-302; P02879 315-576); assay: ELISA on plate-coated ricin, HRP-goat anti-mouse IgG, TMB, absorbance at 615 nm
ricin [2] = biological target: T1, ricin; assay: SPR; ricin captured on biosensor chip, antibody in flow
ricin [3] = biological target: T1, ricin; assay: SPR; ricin captured on biosensor chip, antibody in flow; KD from koff/kon

Binder | EC50 (read off the curve) (ricin [1]) | koff (ricin [2]) | kon (ricin [2]) | Kd (ricin [3])
B1 | ~10 ng/mL |  |  | 
B2 | ~2 ng/mL | 0.00047 s⁻¹ | 184000 M⁻¹ s⁻¹ | 2.56 nM
B3 |  | 0.00068 s⁻¹ | 419000 M⁻¹ s⁻¹ | 1.63 nM
B4 | ~5 ng/mL |  |  | 
B5 | ~1 ng/mL |  |  | 
